Pooled drug test results. Numbers come from NIAID ChemDB, via PubChem.

All rows: cytotoxicity tests; cells: MT-4; read by: MTT; measure: CC50

CCn is the concentration with n% toxicity to the cells.

{"SMILES": "CCC(C)Sc1nc(C2(c3c(F)cccc3F)CC2)c(C)c(=O)[nH]1", "result": "20 µM"}
{"SMILES": "CCOCn1c(Cc2ccc(OC)c(OC)c2)c(CC)c(=O)[nH]c1=O", "result": ">100 µM"}
{"SMILES": "Cc1cc(C#N)cc(C)c1Oc1nc(Nc2ccc(C#N)cc2)nc(N)c1Br", "result": "27 µM"}
{"SMILES": "C/C(=N\\Nc1nc(-c2ccc([N+](=O)[O-])cc2)cs1)c1ccc(Cl)c(Cl)c1", "result": "14.07 µM"}
{"SMILES": "COc1ccc(Nc2nc3cc(C(F)(F)F)ccc3n3cccc23)cc1", "result": ">100 µM"}
{"SMILES": "N#Cc1ccc(Nc2nc(Oc3c(Br)cc(Br)cc3Br)ncc2NC(=O)C(F)(F)F)cc1", "result": "17 µM"}
{"SMILES": "Cc1cn(CCO[C@@H]2O[C@H](CO)[C@@H](N=[N+]=[N-])[C@H]2O)c(=O)[nH]c1=O", "result": ">100 µg/mL"}
{"SMILES": "COc1ccc(N/C(C)=C\\C(=O)c2c(O)c(S(=O)(=O)Oc3ccc([N+](=O)[O-])cc3)c3occc3c2OC)cc1", "result": "400 µM"}
{"SMILES": "CO[C@@]12C[C@]3(C)CCC[C@H](C)[C@@]3(O)CC1=C(C)C(=O)O2", "result": "148.1 µg/mL"}
{"SMILES": "Cc1cn([C@H]2C[C@H](N=[N+]=[N-])[C@@H](CO)O2)c(=O)[nH]c1=O", "result": "50 µg/mL"}
{"SMILES": "COc1cc(Cc2[nH]c(=S)[nH]c(=O)c2C(C)C)cc(OC)c1", "result": ">100 µM"}
{"SMILES": "CCc1c(C(=O)c2cc(Cl)cc(Cl)c2)n(Cc2ccncc2)c(=O)[nH]c1=O", "result": "32.9 µg/mL"}
{"SMILES": "CCOCn1c(Cc2cc(OC)cc(OC)c2)c(CC)c(=O)[nH]c1=O", "result": ">100 µM"}
{"SMILES": "CC(C)[C@@H](NC(=O)c1ccccc1)C(=O)N/N=C/c1ccccc1F", "result": ">366 µM"}
{"SMILES": "COc1c(-c2cc(C)n(-c3ccccc3)n2)c(O)c(S(=O)(=O)OC2CCCC2)c2occc12", "result": "190 µM"}
{"SMILES": "CC(=O)Nc1cnc(Oc2c(C)cc(C)cc2C)nc1Nc1ccc(C#N)cc1", "result": ">322 µM"}
{"SMILES": "COC(=O)c1ccc(NC(=O)COc2nsnc2-c2cccc3ccccc23)c(Br)c1", "result": ">100 µM"}
{"SMILES": "CCc1c(Cc2ccc(C)cc2)n(COCc2ccccc2)c(=O)[nH]c1=O", "result": "44 µM"}
{"SMILES": "COc1cc(OCc2nc3cc(C(F)(F)F)ccc3n3cccc23)cc(OC)c1OC", "result": "100 µM"}
{"SMILES": "CC(C)[C@H](NC(=O)c1ccccc1)C(=O)N/N=C/c1c(F)cccc1Cl", "result": ">332 µM"}
{"SMILES": "CCOn1nnc2c1Cc1cccnc1C2", "result": ">100 µM"}
{"SMILES": "CCOC(=O)c1ccc(Nc2nc3ccccc3n3cccc23)cc1", "result": "100 µM"}
{"SMILES": "Cc1cc(CF)cc(C(=O)c2c(C(C)C)c(=O)[nH]c(=O)n2Cc2ccncc2)c1", "result": "92.8 µg/mL"}
{"SMILES": "Cc1cn([C@H]2C[C@H](N=[N+]=[N-])[C@@H](CO)O2)c(=O)[nH]c1=O", "result": "436 µM"}
{"SMILES": "COc1c(C(=O)/C=C(/C)Nc2ccccc2)c(O)c(S(=O)(=O)OC2CCCCC2)c2occc12", "result": "490 µM"}
{"SMILES": "CCc1c(Cc2cc(OC)cc(OC)c2)n(COCCOc2ccccc2)c(=O)[nH]c1=O", "result": "41 µM"}
{"SMILES": "O=C(O)c1ccc(OCc2nc3ccccc3n3cccc23)cc1", "result": "8 µM"}
{"SMILES": "COc1c(-c2cc(C)on2)c(O)c(S(=O)(=O)Oc2ccc([N+](=O)[O-])cc2)c2occc12", "result": "280 µM"}
{"SMILES": "COc1ccc(/C=N/Nc2nc(-c3ccc(Cl)cc3)cs2)cc1", "result": "125 µM"}
{"SMILES": "CC(=O)Nc1cnc(Oc2c(C)cc(Br)cc2C)nc1Nc1ccc(C#N)cc1", "result": "147 µM"}
{"SMILES": "C[C@H](CS)C(=O)N1CCC[C@@H]1c1nc2ncnc(N)c2[nH]1", "result": "24.7 µg/mL"}
{"SMILES": "COc1cccc2c1c(/C(O)=C1\\COC(=O)C1=O)cn2Cc1ccc(F)cc1", "result": "71.39 µM"}
{"SMILES": "CCc1c(Cc2ccccc2)n(COCCc2ccccc2)c(=O)[nH]c1=O", "result": "43 µM"}
{"SMILES": "C[C@H](CS)C(=O)N1CCC[C@@H]1c1nc2ccccc2s1", "result": "15.8 µg/mL"}
{"SMILES": "CCc1c(C(=O)c2cc(C)cc(C)c2)n(Cc2ccc(OC)cc2)c(=O)[nH]c1=O", "result": "2.14 µg/mL"}
{"SMILES": "C/C(=N\\Nc1nc(-c2ccc(Br)cc2)cs1)c1ccc(-n2ccnc2)cc1", "result": "87.33 µM"}
{"SMILES": "N#Cc1ccc(Nc2nc(Oc3c(Cl)cc(Cl)cc3Cl)ncc2NC(=O)C(F)(F)F)cc1", "result": ">248 µM"}
{"SMILES": "CC(C)[C@@H](NC(=O)c1ccccc1)C(=O)N/N=C/c1c(F)cccc1F", "result": ">348 µM"}
{"SMILES": "CC(Oc1nsnc1-c1cccc2ccccc12)C(=O)Nc1ccccc1Cl", "result": "≥17 µM"}
{"SMILES": "CC(=O)Nc1cnc(Oc2c(C)cc(C#N)cc2C)nc1Nc1ccc(C#N)cc1", "result": ">313 µM"}
{"SMILES": "Clc1ccc(-c2csc(N/N=C/c3ccncc3)n2)cc1", "result": "125 µM"}
{"SMILES": "c1c2c(cc3n[nH]nc13)NCCC2", "result": ">100 µM"}
{"SMILES": "COc1c(-c2cc(C)n(-c3ccccc3)n2)c(O)c(S(=O)(=O)Oc2ccc([N+](=O)[O-])cc2)c2occc12", "result": "120 µM"}
{"SMILES": "Cc1cn([C@H]2C[C@H](N=[N+]=[N-])[C@@H](COP(=O)(O)CCl)O2)c(=O)[nH]c1=O", "result": "300 µM"}
{"SMILES": "Cc1ccc(C(C)C)c(O)c1", "result": "188 µg/mL"}
{"SMILES": "CCc1c(Sc2cc(C)cc(C)c2)n(Cc2ccncc2)c(=O)[nH]c1=O", "result": "12.5 µg/mL"}
{"SMILES": "CC(=O)Nc1cnc(Oc2c(Cl)cccc2Cl)nc1Nc1ccc(C#N)cc1", "result": "193 µM"}
{"SMILES": "CC1=C[C@@H]([C@H]2O[C@@H]3Cc4c(ccc5c4C=C[C@H]4C(C)(C)O[C@@H]6CC(=O)O[C@@]64C5)[C@@H]3[C@@H]2C)OC1=O", "result": "~120 µg/mL"}
{"SMILES": "CCOC(=O)CCC(NC(=O)c1ccc(OCc2nc3ccccc3n3cccc23)cc1)C(=O)OCC", "result": ">100 µM"}
{"SMILES": "CCc1c(C(=O)c2cc(C)cc(C)c2)n(Cc2ccnc(Cl)c2)c(=O)[nH]c1=O", "result": "8.7 µg/mL"}
{"SMILES": "CCc1c(Cc2ccc(OC)c(OC)c2)n(COCC2CC2)c(=O)[nH]c1=O", "result": ">100 µM"}
{"SMILES": "C[C@H](CS)C(=O)N1CCC[C@@H]1c1nc2ncncc2[nH]1", "result": "59.05 µg/mL"}
{"SMILES": "CCc1c(Cc2cc(C)cc(C)c2)n(COCCCc2ccccc2)c(=O)[nH]c1=O", "result": "43 µM"}
{"SMILES": "C[C@H](CSCCN1C(=O)c2ccccc2C1=O)C(=O)N1CCC[C@@H]1C(=O)O", "result": "22.43 µg/mL"}
{"SMILES": "Cc1cc(C=O)cc(C)c1Oc1ncc([N+](=O)[O-])c(Nc2ccc(C#N)cc2)n1", "result": "37 µM"}
{"SMILES": "COc1ccc(N(C)C(=O)[C@H](Cc2cc(F)cc(F)c2)NC(=O)CN2CCNCC2=O)cc1", "result": ">272 µM"}
{"SMILES": "CCc1c(Cc2ccc(OC)c(OC)c2)n(COCCc2ccccc2)c(=O)[nH]c1=O", "result": "73 µM"}
{"SMILES": "CCCCSc1nc(C2(c3c(F)cccc3F)CC2)c(C)c(=O)[nH]1", "result": "8 µM"}
{"SMILES": "CCc1c(Cc2cc(C)cc(C)c2)n(COCCOc2ccccc2)c(=O)[nH]c1=O", "result": "41 µM"}
{"SMILES": "O=C(COc1nsnc1-c1cccc2ccccc12)Nc1ccccc1Cl", "result": ">126 µM"}
{"SMILES": "Cc1cc(F)cc(C(=O)c2c(C(C)C)c(=O)[nH]c(=O)n2Cc2ccncc2)c1", "result": "22.7 µg/mL"}
{"SMILES": "CCOC(=O)c1ccc(NC(=O)COc2nsnc2-c2cccc3ccccc23)c(Br)c1", "result": ">98 µM"}
{"SMILES": "CCOC(=O)c1c(CSc2ccccc2)n(C)c2cc(Br)c(O)c(CN(C)C)c12", "result": "23 µM"}
{"SMILES": "Cc1cc(C)cc(C(=O)c2c(C(C)C)c(=O)[nH]c(=O)n2Cc2ccc([N+](=O)[O-])cc2)c1", "result": "5.65 µg/mL"}
{"SMILES": "CC1OC(Oc2c(-c3cc(O)c(O)c(O)c3)oc3cc(O)cc(O)c3c2=O)C(O)C(O)C1O", "result": ">300 µM"}
{"SMILES": "O=C(O)C(Cc1ccc(O)c(O)c1)OC(O)/C=C/C1=CC(O)C(O)C=C1", "result": "55 µM"}

10 of the rows above, restated:

SMILES | result
CC(Oc1nsnc1-c1cccc2ccccc12)C(=O)Nc1ccccc1Cl | ≥17 µM
CCOn1nnc2c1Cc1cccnc1C2 | >100 µM
CC(=O)Nc1cnc(Oc2c(C)cc(Br)cc2C)nc1Nc1ccc(C#N)cc1 | 147 µM
COc1c(C(=O)/C=C(/C)Nc2ccccc2)c(O)c(S(=O)(=O)OC2CCCCC2)c2occc12 | 490 µM
Cc1cc(C#N)cc(C)c1Oc1nc(Nc2ccc(C#N)cc2)nc(N)c1Br | 27 µM
CCOCn1c(Cc2ccc(OC)c(OC)c2)c(CC)c(=O)[nH]c1=O | >100 µM
CCc1c(C(=O)c2cc(C)cc(C)c2)n(Cc2ccnc(Cl)c2)c(=O)[nH]c1=O | 8.7 µg/mL
COc1cc(OCc2nc3cc(C(F)(F)F)ccc3n3cccc23)cc(OC)c1OC | 100 µM
CCC(C)Sc1nc(C2(c3c(F)cccc3F)CC2)c(C)c(=O)[nH]1 | 20 µM
CCc1c(Cc2ccc(C)cc2)n(COCc2ccccc2)c(=O)[nH]c1=O | 44 µM

Conditions beyond the fields shown may differ between rows.